In PubChem BioAssay AID687014 (The Scripps Research Institute Molecular Screening Center, 2013):
This is a selection; strong and weak results do not stand in their true shares. Activity calls are given as the source filed them.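 The calls were made as follows: active = activation above a cutoff set at the mean of all screened compounds plus 3 SD (cut at about 10% in these data); inactive = the rest.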

test system: Nuclear hormone receptor DAF-12 (Heterodera glycines), GAL4 fusion; test: hgDAF-12 GAL4 fusion reporter activation – cell-based, luminescence, HEK293, UAS-luciferase, primary screen (AID 687014); conditions: HEK293 GAL4-hgDAF12 UAS-luciferase reporter, agonist luminescence; at 6.8 µM; active compounds read high; normalized to butyrate control;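 also: 0% = DMSO wells and 100% = sodium butyrate wells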

Compound | activation
CCCCn1nnnc1C(c1ccnc2ccccc12)N1CCC(n2c(=O)[nH]c3ccccc32)CC1 (centres undefined) | inactive: -5.11%
Cc1cc(C)cc(N(C(=O)c2ccccc2)C2CCN(C(=O)OC(C)(C)C)CC2)c1 | inactive: -1.03%
O=C(NCC1(N2CCCCC2)CCCCC1)c1ccc(Cl)nc1 | inactive: 0.8%
O=c1[nH]c2ccccc2n1C1CCN(C(c2ccccc2OC(F)(F)F)c2nnnn2C2CCCCC2)CC1 (centres undefined) | inactive: 1.31%
O=C(NCC1(N2CCOCC2)CCCCC1)c1cc2ccccc2o1 | inactive: -1.75%
COc1ccc(Cl)cc1C(=O)NCC1(N2CCOCC2)CCCCC1 | inactive: 0.51%
N#CC1(Nc2ccccc2)CCN(Cc2ccccc2)CC1 | inactive: 0.38%
O=C(NCC1(N2CCCCC2)CCCCC1)c1ccc(Cl)s1 | inactive: -1.52%
O=C(OC1CN2CCC1CC2)C1c2ccccc2Oc2ccccc21 (centres undefined) | inactive: -1.67%
O=c1[nH]c2ccccc2n1C1CCN(C(c2cc3ccccc3o2)c2nnnn2C2CCCCC2)CC1 (centres undefined) | inactive: 1.07%
CCCCn1nnnc1C(c1ccc(OC)cc1)N1CCC(n2c(=O)[nH]c3ccccc32)CC1 (centres undefined) | inactive: -1.04%
CCOC(=O)N1CCC(Nc2ccc(OC)cc2)CC1 | inactive: 1.5%
CC(C)(C)OC(=O)N1CCC(N(C(=O)c2ccccc2)c2ccc(F)cc2)CC1 | inactive: -1.11%
COc1ccc(C(=O)NCC2(N3CCCCC3)CCCCC2)c(OC)c1OC | inactive: -4.33%
CCC(c1nnnn1C1CCCC1)N1CCC(n2c(=O)[nH]c3ccccc32)CC1 (centres undefined) | inactive: -2.05%
COc1ccc(C(=O)NCC2(N3CCCCC3)CCCCC2)cc1 | inactive: -0.87%
O=C(NCC1(N2CCCCC2)CCCCC1)c1cccs1 | inactive: -0.39%
CCCCn1nnnc1C(CC)N1CCC(n2c(=O)[nH]c3ccccc32)CC1 (centres undefined) | inactive: -4.13%
CCCCn1nnnc1C(c1cccs1)N1CCC(n2c(=O)[nH]c3ccccc32)CC1 (centres undefined) | inactive: -3.09%
O=C(NCC1(N2CCCCC2)CCCCC1)c1ccc(=O)[nH]c1 | inactive: 0.11%
Cc1cccc(NC2(C#N)CCN(Cc3ccccc3)CC2)c1 | inactive: 2.96%

Compound | activation
CSc1ccccc1C(=O)NCC1(N2CCCCC2)CCCCC1 | inactive: -2%
O=c1[nH]c2ccccc2n1C1CCN(C(c2ccccc2)c2nnnn2C2CCCCC2)CC1 (centres undefined) | inactive: 3.35%
CCOC(=O)N1CCC(Nc2cccc(C)c2)CC1 | inactive: -0.31%
COc1cc(C(=O)NCC2(N(C)C)CCCCC2)ccc1OC(F)F | inactive: -2.38%
O=c1[nH]c2ccccc2n1C1CCN(C(c2cccc3ccccc23)c2nnnn2C2CCCC2)CC1 (centres undefined) | inactive: 2.17%
O=C1CCN(Cc2ccccc2)CC1 | inactive: 1%
CC(C)(C)n1nnnc1C(c1ccccc1)N1CCC(n2c(=O)[nH]c3ccccc32)CC1 (centres undefined) | inactive: 1.29%
CCOc1ccc(C)cc1CN(CCCl)CCCl | inactive: -1.3%
COc1ccc(NC2CCN(CCc3ccccc3)CC2)c(OC)c1 | inactive: 0.63%
CCOC(=O)N1CCC(Nc2ccc(F)cc2)CC1 | inactive: -0.55%
O=P1(N(CCCl)CCCl)SCCCS1 | inactive: 1.83%
CCCCn1nnnc1C(c1cc2ccccc2o1)N1CCC(n2c(=O)[nH]c3ccccc32)CC1 (centres undefined) | inactive: -1.9%
CCCCOc1ccc(C(=O)NCC2(N3CCOCC3)CCCCC2)cc1 | inactive: 3.63%
O=C(NCC1(N2CCCCC2)CCCCC1)c1ccc(F)cc1 | inactive: 2.48%
CCN1CCC(Nc2cccc(F)c2)CC1 | inactive: 1.01%
COc1ccc(C(c2nnnn2C2CCCCC2)N2CCC(n3c(=O)[nH]c4ccccc43)CC2)cc1 (centres undefined) | inactive: 1.39%
CC(C)(C)n1nnnc1C(c1ccnc2ccccc12)N1CCC(n2c(=O)[nH]c3ccccc32)CC1 (centres undefined) | inactive: 0.95%
Cc1ccccc1NC1(C#N)CCN(Cc2ccccc2)CC1 | inactive: -5.47%
CN(C)c1ccc(C(=O)NCC2(N3CCCCC3)CCCCC2)cc1 | inactive: 1%
Cn1c(=O)[nH]cc(N(CCCl)CCCl)c1=O | inactive: -1.48%
O=C(NCC1(N2CCCCC2)CCCCC1)c1ccco1 | inactive: 2.14%

Compound | activation
CCC(c1nnnn1C1CCCCC1)N1CCC(n2c(=O)[nH]c3ccccc32)CC1 (centres undefined) | inactive: -1.43%
COc1cccc(C(c2nnnn2C2CCCCC2)N2CCC(n3c(=O)[nH]c4ccccc43)CC2)c1OC (centres undefined) | inactive: -5.42%
CC(=O)N(c1ccccc1)C1CCNCC1 | inactive: -0.69%
COc1cc(OC)cc(C(=O)NCC2(N3CCCCC3)CCCCC2)c1 | inactive: -0.38%
O=c1[nH]c2ccccc2n1C1CCN(C(c2ccnc3ccccc23)c2nnnn2C2CCCCC2)CC1 (centres undefined) | inactive: -2.93%
Fc1ccccc1NC1CCN(Cc2ccccc2)CC1 | inactive: -0.57%
Cc1ccc(C(=O)NCC2(N3CCCCC3)CCCCC2)o1 | inactive: 2.96%
Cc1ccc(NC2(C#N)CCN(Cc3ccccc3)CC2)cc1 | inactive: -0.38%
COc1cccc(C(c2nnnn2C2CCCC2)N2CCC(n3c(=O)[nH]c4ccccc43)CC2)c1OC (centres undefined) | inactive: 0.04%
COc1cc(OC)cc(C(=O)NCC2(N3CCOCC3)CCCCC2)c1 | inactive: -1.27%
COc1cccc(C(=O)N(c2cc(C)cc(C)c2)C2CCN(C(=O)OC(C)(C)C)CC2)c1 | inactive: -0.96%
CCC(CO)(C(=O)OC1CN2CCC1CC2)c1ccccc1 (centres undefined) | inactive: -0.39%
CN1CCC(Nc2ccc(Cl)cc2)CC1 | inactive: -2.43%
CN1CCC(Nc2ccc(F)c(Cl)c2)CC1 | inactive: 0.33%
CCOc1ncccc1C(=O)NCC1(N2CCOCC2)CCCCC1 | inactive: -3.65%
O=C(O)C1(Nc2ccccc2)CCN(Cc2ccccc2)CC1 | inactive: -0.55%
NN(c1ccccc1)C1CCN(CCc2ccccc2)CC1 | inactive: -0.55%
CC(C)(C)OC(=O)N1CCC(Nc2ccccc2)CC1 | inactive: -0.04%
O=c1[nH]c2ccccc2n1C1CCN(C(c2cc3ccccc3o2)c2nnnn2C2CCCC2)CC1 (centres undefined) | inactive: -2.98%
CCCOc1ccc(C(=O)NCC2(N(C)C)CCCCC2)cc1 | inactive: 2.15%
CCOC(=O)N1CCC(Nc2ccc(C)cc2)CC1 | inactive: -1.3%

Compound | activation
COc1cccc(C(c2nnnn2C(C)(C)C)N2CCC(n3c(=O)[nH]c4ccccc43)CC2)c1OC (centres undefined) | inactive: -3.39%
N/C(=N\O)c1c(N)no[n+]1[O-] | inactive: 1.49%
O=c1[nH]c2ccccc2n1C1CCN(C(c2cccs2)c2nnnn2C2CCCC2)CC1 (centres undefined) | inactive: -2.9%
O=C(OC1CN2CCC1CC2)C1c2ccccc2C=Cc2ccccc21 (centres undefined) | inactive: 1.42%
CCCCn1nnnc1C(c1cccc(OC)c1OC)N1CCC(n2c(=O)[nH]c3ccccc32)CC1 (centres undefined) | inactive: -5.81%
COc1cc(C(=O)NCC2(N3CCOCC3)CCCCC2)cc(OC)c1C | inactive: 1.55%
CCCCn1nnnc1C(c1ccccc1)N1CCC(n2c(=O)[nH]c3ccccc32)CC1 (centres undefined) | inactive: -3.77%
O=C(NCC1(N2CCOCC2)CCCCC1)c1cc(Br)ccc1Cl | inactive: 5.07%
NC(=O)C1(Nc2ccccc2)CCN(Cc2ccccc2)CC1 | inactive: 2.61%
O=c1[nH]c2ccccc2n1C1CCN(C(c2cccs2)c2nnnn2C2CCCCC2)CC1 (centres undefined) | inactive: -5.33%
O=c1[nH]c2ccccc2n1C1CCN(C(c2ccnc3ccccc23)c2nnnn2C2CCCC2)CC1 (centres undefined) | inactive: -3.46%
COc1ccc(C(=O)NCC2(N3CCOCC3)CCCCC2)cc1OC | inactive: -2.51%
CN(C)C1(CNC(=O)c2cccc(C#N)c2)CCCCC1 | inactive: 0.97%
Cc1cc(N(CCCl)CCCl)ccc1C=O | inactive: -6.97%
O=c1[nH]c2ccccc2n1C1CCN(C(c2ccccc2)c2nnnn2C2CCCC2)CC1 (centres undefined) | inactive: -0.88%
CCCN1CCC(Nc2cc(OC)cc(OC)c2)CC1 | inactive: 2.27%
C/C(N)=N\P(=O)(Oc1ccccc1)Oc1ccccc1 | inactive: -1.3%
c1ccc(CN2CCC(Nc3ccccc3)CC2)cc1 | inactive: -2.53%
CC(C)(C)n1nnnc1C(c1cccc2ccccc12)N1CCC(n2c(=O)[nH]c3ccccc32)CC1 (centres undefined) | inactive: -3.51%
N#Cc1ccc(C(=O)NCC2(N3CCCCC3)CCCCC2)cc1 | inactive: -0.8%
CC(C)(C)OC(=O)N1CCC(N(C(=O)c2ccccc2)c2ccc(Cl)cc2)CC1 | inactive: 0.68%
